Anti-infective test results gathered from many reports (values: NIAID ChemDB through PubChem).

Shared fields: growth or infection tests

Percent inhibition refers to the dose given; in toxicity tests it is the harm to the cells.

{"smiles": "CSc1nsc(-c2ccc(OCCCOc3ccccc3)cc2)c1C#N", "endpoint": "EC50", "species": "Encephalomyocarditis virus", "read by": "plaque count", "cell line": "HEP-2/L-929/VERO", "value": ">20 µM"}
{"smiles": "CSc1nsc(-c2ccc[n+](C)c2)c1C#N", "endpoint": "EC50", "species": "Encephalomyocarditis virus", "read by": "plaque count", "strain or isolate": "Encephalomyocarditis virus", "cell line": "L929", "value": ">1250 µM"}
{"smiles": "O=C1CCC(N2C(=O)c3ccccc3C2=O)C(=O)N1", "endpoint": "inhibition", "species": "Encephalitozoon cuniculi", "cell line": "MRC-5", "dose": "10 µg/mL", "value": "5.6%"}
{"smiles": "CSc1nsc(-c2ccccc2)c1C#N", "endpoint": "EC50", "species": "Encephalomyocarditis virus", "read by": "plaque count", "cell line": "L929", "value": "10 µM"}
{"smiles": "CCNCCCCNC/C=C\\CNCCCCNCCCCNCC", "endpoint": "EC50", "species": "Encephalitozoon cuniculi", "value": "600 µM"}
{"smiles": "CSc1nsc(-c2ccc(OC(C)(C)C)cc2)c1C#N", "endpoint": "EC50", "species": "Encephalomyocarditis virus", "read by": "plaque count", "cell line": "L929", "value": "3 µM"}
{"smiles": "CCOC(=O)c1ccc(OCCCOc2ccc(-c3snc(SC)c3C#N)cc2)cc1", "endpoint": "EC50", "species": "Encephalomyocarditis virus", "read by": "plaque count", "cell line": "HEP-2/L-929/VERO", "value": ">2 µM"}
{"smiles": "C1CCCC(CNCCCNCC2CCCC(CNCCCNCC3CCCCCC3)C2)CC1", "endpoint": "EC50", "species": "Encephalitozoon cuniculi", "value": "<100 µM"}
{"smiles": "CCCCCC/C=C\\CNCCCCNC/C=C\\CNCC", "endpoint": "EC50", "species": "Encephalitozoon cuniculi", "value": "600 µM"}
{"smiles": "CSc1nsc(-c2ccc(OCc3ccccc3)cc2)c1C#N", "endpoint": "EC50", "species": "Encephalomyocarditis virus", "read by": "plaque count", "cell line": "HEP-2/L-929/VERO", "value": "20 µM"}
{"smiles": "CSc1nsc(-c2ccc(O)cc2)c1C#N", "endpoint": "EC50", "species": "Encephalomyocarditis virus", "read by": "plaque count", "cell line": "L929", "value": ">2 µM"}
{"smiles": "CC[C@@H](C)CNCCCNCCCCCCCNCCCN", "endpoint": "EC50", "species": "Encephalitozoon cuniculi", "value": "<500 µM"}
{"smiles": "CSc1nsc(-c2ccc(OCCCc3ccccc3)cc2)c1C#N", "endpoint": "EC50", "species": "Encephalomyocarditis virus", "read by": "plaque count", "cell line": "HEP-2/L-929/VERO", "value": "10 µM"}
{"smiles": "CSc1nsc(C)c1C#N", "endpoint": "EC50", "species": "Encephalomyocarditis virus", "read by": "plaque count", "strain or isolate": "Encephalomyocarditis virus", "cell line": "L929", "value": ">100 µM"}
{"smiles": "N[C@@H]1C=C[C@H](NCCCNCC2CCCCCC2)CCC1", "endpoint": "EC50", "species": "Encephalitozoon cuniculi", "value": "<100 µM"}
{"smiles": "COc1nsc(-c2ccccc2)c1C#N", "endpoint": "EC50", "species": "Encephalomyocarditis virus", "read by": "plaque count", "strain or isolate": "Encephalomyocarditis virus", "cell line": "L929", "value": ">25 µM"}
{"smiles": "N[C@@H]1C=C[C@H](NCCCNCC2CCCC(CNCCCNC3C=C[C@H](N)C3)C2)C1", "endpoint": "EC50", "species": "Encephalitozoon cuniculi", "value": "<100 µM"}
{"smiles": "CCNC/C=C\\CNC/C=C\\CNC/C=C\\CNCCCCNCC", "endpoint": "EC50", "species": "Encephalitozoon cuniculi", "value": "385 µM"}
{"smiles": "COc1ccc(OCCCCCCn2ccnc2)c(Cl)c1", "endpoint": "EC50", "species": "Encephalomyocarditis virus", "read by": "plaque count", "cell line": "HeLa", "value": ">130.8 µM"}
{"smiles": "CCNC/C=C\\CNC/C=C\\CNCCCCNC/C=C\\CNCC", "endpoint": "EC50", "species": "Encephalitozoon cuniculi", "value": "500 µM"}
{"smiles": "CCOC(=O)c1ccc(OCCOc2ccc(-c3snc(SC)c3C#N)cc2)cc1", "endpoint": "EC50", "species": "Encephalomyocarditis virus", "read by": "plaque count", "cell line": "HEP-2/L-929/VERO", "value": ">2 µM"}
{"smiles": "CSc1nsc(-c2cccnc2)c1C#N", "endpoint": "EC50", "species": "Encephalomyocarditis virus", "read by": "plaque count", "strain or isolate": "Encephalomyocarditis virus", "cell line": "L929", "value": ">20 µM"}
{"smiles": "N=C(N)c1ccc(CNCCCCNCc2ccc(C(=N)N)cc2)cc1", "endpoint": "EC50", "species": "Encephalitozoon cuniculi", "value": "317 µM"}

Again, the opening 2 rows:

{"smiles": "CSc1nsc(-c2ccc(OCCCOc3ccccc3)cc2)c1C#N", "endpoint": "EC50", "species": "Encephalomyocarditis virus", "read by": "plaque count", "cell line": "HEP-2/L-929/VERO", "value": ">20 µM"}
{"smiles": "CSc1nsc(-c2ccc[n+](C)c2)c1C#N", "endpoint": "EC50", "species": "Encephalomyocarditis virus", "read by": "plaque count", "strain or isolate": "Encephalomyocarditis virus", "cell line": "L929", "value": ">1250 µM"}

Rows are shuffled and stem from different studies. ECn: concentration that inhibits the pathogen or its effect by n%.